Anti-infective test results gathered from many reports (values: NIAID ChemDB through PubChem).

Common to all: whole-cell or culture tests; agent: Hepatitis C virus; endpoint: EC50

Blank or dashed fields: not listed here. ECn is the concentration giving n% inhibition of infection, replication or growth. Lines come from different laboratories, so protocols vary. Two numbers with a dash give a range or band.

smiles	method	strain	setting	cells	mutations	result
O=C(O)c1c(-c2ccc[nH]c2=O)c2c3occc3c(F)cc2n1Cc1ccc2nc(C(F)(F)F)[nH]c2c1	replicon	-	-	-	-	0.5–1.5 µM
CCCCOc1ccc(N(C(N)=O)c2nc(-c3ccccn3)cs2)cc1C(F)(F)F	-	-	-	-	-	<1 µM
CCCCNC(=S)Nc1cccc(OCCCCCc2ccccc2)c1	reporter gene / fluorescence	-	-	Ava5-EG(delta4AB)SEAP	-	0.001–1 µM
Cc1ccc(F)c(-c2cc(-c3cccc(NC(=O)C(Cl)Cl)c3)on2)c1Cl	replicon	-	-	-	-	≤10 µM
Cc1cc(-c2nnc(N[C@@H]3CCC[C@H](O)C3)o2)nc2c(C(C)(C)C)cc(OCC(F)(F)F)cc12	-	GT 1b WT	-	Huh7	-	0.00032 µM
CC1(C)CC(=O)C2=C(C1)Nc1c(O)cccc1N(C(=O)CCC(=O)NC(C)(C)C)C2c1ccc(OCc2ccccc2)cc1Cl	luciferase / reporter gene / replicon	1b	-	-	-	6.69 µM
NS(=O)(=O)c1ccc(CCNc2ncnc3c2cnn3-c2ccccc2C(F)(F)F)cc1	replicon	-	-	HUH 9B	-	1–10 µM
C#Cc1cn([C@@H]2O[C@H](CO)[C@@H](O)C2(F)F)c2ncnc(N)c12	replicon	1a	-	HCV replicon	-	0.44 µM
COc1ccc2c(c1)c(=O)c(-c1noc(Cc3ccccc3)n1)cn2CC1CCCCC1	replicon	1b	-	-	-	>10 µM
COC(=O)CCc1ccc(S(=O)(=O)Oc2ccccc2/C=N/NC(=O)Cc2cccc(OC)c2)cc1	replicon	-	-	Huh7	-	>50 µM
Nc1ncnc2c1c(-c1ccco1)cn2[C@@H]1O[C@H](CO)[C@@H](O)C1(F)F	replicon	2a	-	HCV replicon	-	5.62 µM
CNC(=O)c1c(-c2ccc(F)cc2)oc2cc(C3CCCN3S(C)(=O)=O)c(OC(C)C)cc12	replicon	-	-	Huh7	-	<1 µM
CC(C)N(C(=O)c1ccc(Cl)cc1Cl)c1cc(-c2ccccc2)sc1C(=O)O	luciferase / replicon	1b	-	-	-	>5 µM
O=C(Cc1cc(C(F)(F)F)ccc1C(F)(F)F)N/N=C/c1ccccc1OS(=O)(=O)c1ccc(C(F)(F)F)cc1	replicon	-	-	Huh7	-	<5 µM
CCCCCCNC(=S)Nc1ccc2c(c1)Cc1cc(Br)ccc1-2	reporter gene / fluorescence	-	-	Ava5-EG(delta4AB)SEAP	-	0.001–1 µM
CC(C)(c1ccccc1)c1nc(-c2cn(Cc3ccc(C(F)(F)F)cc3)c3cc(N4CCS(=O)(=O)CC4)c(F)cc3c2=O)no1	replicon	1b	-	-	-	<0.5 µM
CS(=O)(=O)NC(=O)c1c(-c2ccc[nH]c2=O)c2c3occc3ccc2n1Cc1ccccc1F	replicon	-	-	-	-	<0.5 µM
CN1CCN(c2cc3c(cc2F)c(=O)c(-c2noc(Cc4ccc(F)cc4)n2)cn3Cc2ccc(Cl)cc2)CC1	replicon	1b	-	-	-	>10 µM
CCOc1ccc(CC(=O)N/N=C/c2ccccc2OS(=O)(=O)c2ccc(C(F)(F)F)cc2)cc1	replicon	-	-	Huh7	-	5–50 µM
COC(=O)c1ccc(Cl)c(-c2cc(-c3cccc(NC(=O)C(Cl)Cl)c3)on2)c1Cl	replicon	-	-	-	-	>10 µM
O=C(N/N=C/c1ccccc1OS(=O)(=O)c1ccc(C(F)(F)F)cc1)c1cc(Cl)ccc1Cl	replicon	-	-	Huh7	-	<5 µM
Nc1ncnc2c1c(-c1cccs1)cn2[C@@H]1O[C@H](CO)[C@@H](O)[C@H]1F	replicon	2a	-	HCV replicon	-	7.96 µM
CCCCCCCCOc1ccc(N(C(N)=O)c2nc(-c3ccncc3)cs2)cc1	-	-	-	-	-	>10 µM
O=C(Nc1cccc(-c2cc(-c3c(Cl)cccc3C3CCCC3)no2)c1)C(Cl)Cl	replicon	-	-	-	-	≤10 µM
Cn1cc(C2Nc3cccc(O)c3NC3=C2C(=O)CC(C)(C)C3)c2ccccc21	luciferase / reporter gene / replicon	1b	-	-	-	>10 µM
O=C(O)Cc1ccc2c(c1)c(=O)c(-c1noc(Cc3ccccc3)n1)cn2Cc1ccc(C(F)(F)F)cc1F	replicon	1b	-	-	-	<0.5 µM
CNC(=O)c1c(-c2ccccc2)oc2ccc(OC)c(C)c12	replicon	-	-	Huh7	-	>30 µM
Cc1ccc(-n2ncc3c(Nc4ccc(F)c(Cl)c4)ncnc32)c(C)c1	replicon	-	-	HUH 9B	-	<1 µM
CC(C)N(C(=O)c1ccc(Cl)cc1F)c1cc(-c2ccc(-c3cc4ncccn4n3)cc2)sc1C(=O)O	replicon / ELISA	1a	-	-	-	0.05–0.1 µM
COc1cccc(OCC(=O)N/N=C/c2ccccc2OS(=O)(=O)c2ccc(C(F)(F)F)cc2)c1	replicon	-	-	Huh7	-	<5 µM
COc1nc(N)nc2c1ncn2[C@@H]1O[C@H](COP(=O)(N[C@@H](C)C(=O)OC(C)C)Oc2ccccc2)[C@@H](O)[C@@]1(C)F	replicon	2a	45 d	-	-	0.091 µM
O=C(Nc1cccc(-c2cc(-c3ccccc3OC(F)F)no2)c1)C(Cl)Cl	replicon	-	-	-	-	≤10 µM
C#Cc1cn([C@@H]2O[C@H](CO)[C@@H](O)[C@H]2F)c2ncnc(N)c12	replicon	2a	-	HCV replicon	-	1.86 µM
Cc1ccccc1CC(=O)N/N=C/c1ccccc1OS(=O)(=O)c1ccc(C(F)(F)F)cc1	replicon	-	-	Huh7	-	<5 µM
Nc1ncnc2c1c(-c1ccc3ccccc3c1)cn2[C@@H]1O[C@H](CO)[C@@H](O)C1(F)F	replicon	1a	-	HCV replicon	-	1.43 µM
CN1CCN(c2cc3c(cc2F)c(=O)c(-c2noc(Cc4ccccc4)n2)cn3CC2CCCCC2)CC1	replicon	1b	-	-	-	<2 µM
CNC(=O)c1c(-c2ccc(F)cc2)oc2cc(N(C)S(C)(=O)=O)c(OCCn3nc(C)cc3C)cc12	replicon	-	-	Huh7	-	<1 µM
O=C1CN(c2cc3c(cc2F)c(=O)c(-c2noc(Cc4ccc(F)cc4)n2)cn3Cc2ccc(C(F)(F)F)cc2F)CCN1	replicon	1b	-	-	-	<0.5 µM
Cc1cc(-c2nnc(NC3CC(O)(C(F)F)C3)o2)nc2c(C(C)(C)C)cc(NCC(F)(F)F)cc12	-	GT 2a JFH	-	Huh7	-	0.025 µM
CNC(=S)Nc1ccc2c(c1)Cc1cc(Br)ccc1-2	reporter gene / fluorescence	-	-	Ava5-EG(delta4AB)SEAP	-	0.001–1 µM
O=C(NS(=O)(=O)C1CC1)c1c(-c2ccc[nH]c2=O)c2c3occc3c(F)cc2n1Cc1cc2[nH]cnc2cc1Cl	replicon	-	-	-	-	<0.5 µM
Cc1cc(C(=O)N2c3cccc(O)c3NC3=C(C(=O)CC(C)(C)C3)[C@H]2c2ccc(OCc3ccccc3)cc2F)no1	luciferase / reporter gene / replicon	1b	-	-	-	4.24 µM
CCCCCN(C)c1ccc(N(C(N)=O)c2nc(-c3ccc(O)c(C(N)=O)c3)cs2)cc1C(F)(F)F	-	-	-	-	-	<1 µM
Cc1cccc(C(=O)N2c3cccc(O)c3NC3=C(C(=O)CC(C)(C)C3)C2c2ccc(OCc3ccccc3F)cc2F)n1	luciferase / reporter gene / replicon	1b	-	-	-	0.47 µM
NC(=S)Nc1cccc(NCCCCCCCCc2ccccc2)c1	reporter gene / fluorescence	-	-	Ava5-EG(delta4AB)SEAP	-	0.001–1 µM
Cc1cc(C)n2nc(CC3=C(O)CC(CCc4ccc(C(C)(C)C#N)c(F)c4)(C4CCCC4)OC3=O)nc2n1	replicon	WT	-	-	-	0.018 µM
CNC(=O)c1c(-c2ccc(F)cc2)oc2ccc(OCc3cccc(C(=O)OC)c3)cc12	replicon	-	-	Huh7	-	>30 µM
NC(=S)Nc1cccc(OCCCCCOc2ccc(F)cc2)c1	reporter gene / fluorescence	-	-	Ava5-EG(delta4AB)SEAP	-	0.001–1 µM
C/C(=N\NC(=O)Cc1cccc(Cl)c1)c1ccccc1OS(=O)(=O)c1ccc(C(F)(F)F)cc1	replicon	-	-	Huh7	-	>50 µM
Cc1ccc(-n2ncc3c(Nc4ccc(N5CCOCC5)c(C#N)c4)ncnc32)c(C)c1	replicon	-	-	HUH 9B	-	<1 µM
COc1cccc(CC(=O)N/N=C/c2ccccc2OS(=O)(=O)c2ccc(-c3cnco3)s2)c1	replicon	-	-	Huh7	-	<5 µM
NS(=O)(=O)c1ccc(CCNc2ncnc3c2cnn3-c2ccccc2Cl)cc1	replicon	-	-	HUH 9B	-	<1 µM
CC(C)Oc1ccccc1-c1cc(-c2cccc(NC(=O)C(Cl)Cl)c2)on1	replicon	-	-	-	-	≤10 µM
CC(C)N(C(=O)c1ccc(Cl)cc1Cl)c1cc(-c2ccc(-c3cn4ccsc4n3)cc2)sc1C(=O)O	luciferase / replicon	1b	-	-	-	0.1–0.5 µM
Cc1coc2c1ccc1c2c(-c2ccc[nH]c2=O)c(C(=O)O)n1Cc1cc(F)ccc1F	replicon	-	-	-	-	>1.5 µM
CCCCCOc1ccc(N(C)c2nc(C(=O)Nc3ccc(C#N)cc3)cs2)cc1C(F)(F)F	-	-	-	-	-	>10 µM
CCCCn1c(=O)c2cc(OC)ccc2c2cc(C(O)(C(F)(F)F)C(F)(F)F)c(OC)cc21	PCR	2a	-	Huh7.5.1	-	2.6 µM
CNC(=O)c1c(-c2ccc(F)cc2)oc2cc(NS(C)(=O)=O)c(F)cc12	replicon	-	-	Huh7	-	<10 µM
Cc1cc(Br)ccc1C(=O)N(c1cc(-c2ccc(-c3cc4ncccn4n3)cc2)sc1C(=O)O)C(C)C	luciferase / replicon	1a	-	-	-	0.1–0.5 µM
COc1c(-c2ccc3cc(NS(C)(=O)=O)ccc3c2)cc(-n2ccc(=O)[nH]c2=O)cc1C(C)(C)C	luciferase	genotype 1b Con1	-	Huh7	A553V	0.071 µM
COc1cccc(CC(=O)N/N=C/c2ccccc2OS(=O)(=O)c2ccc(Oc3ccccc3)nc2)c1	replicon	-	-	Huh7	-	<5 µM
Cc1ccc(-n2ncc3c(Nc4ccc(C#N)c(Cl)c4)ncnc32)c(C)c1	replicon	-	-	HUH 9B	-	1–10 µM
CNC(=O)c1c(-c2ccc(F)cc2)oc2cc(N(Cc3ccc(B(O)O)c(F)c3)S(C)(=O)=O)c(C3CC3)cc12	luciferase	HCVcc virus (JC1p7Fluc2a)	-	Huh7.5	-	0.047 µM
Cc1ccc(-n2ncc3c(Nc4ccc(S(=O)(=O)Nc5nccs5)cc4)ncnc32)c(C)c1	replicon	-	-	HUH 9B	-	1–10 µM
CNC(=O)c1c(-c2ccc(F)cc2)oc2cc(N(C)S(C)(=O)=O)c(OCc3ccncc3)cc12	replicon	-	-	Huh7	-	<1 µM
CN(C)C1CCN(c2cccc(Cl)c2-c2cc(-c3cccc(NC(=O)C(Cl)Cl)c3)on2)C1	replicon	-	-	-	-	≤10 µM
CC(=O)N1c2cccc(O)c2NC2=C(C(=O)CC(C)(C)C2)C1c1ccccn1	luciferase / reporter gene / replicon	1b	-	-	-	>100 µM
Nc1ccccc1Cn1c(C(=O)O)c(-c2ccccc2F)c2c3ccccc3ccc21	replicon	-	-	-	-	>10 µM
CNC(=O)c1c(-c2ccc(F)cc2)oc2cc(-c3ncnn3C)c(OC)cc12	replicon	-	-	Huh7	-	<1 µM
CS(=O)(=O)NC(=O)c1c(-c2ccc[nH]c2=O)c2c3c(ccc2n1Cc1ccccc1F)OC(F)(F)O3	replicon	-	-	-	-	>1.5 µM
Cc1ccc(-n2ncc3c(NC(=O)Nc4cccc(C(F)(F)F)c4)ncnc32)c(C)c1	replicon	-	-	HUH 9B	-	<1 µM
CC(C)(C)OC(=O)N(C(=O)OC(C)(C)C)c1cc(Cn2c(C(=O)NS(=O)(=O)C3CC3)c(-c3ccc[nH]c3=O)c3c4occc4c(F)cc32)c(F)cn1	replicon	-	-	-	-	<0.5 µM
CC(C)N(C(=O)c1ccc(Cl)cc1Cl)c1cc(-c2ccc(-c3cn4ccccc4n3)cc2)sc1C(=O)O	luciferase / replicon	1b	-	-	-	0.05–0.1 µM

Again, the opening 10 rows:

smiles,method,strain,setting,cells,mutations,result
O=C(O)c1c(-c2ccc[nH]c2=O)c2c3occc3c(F)cc2n1Cc1ccc2nc(C(F)(F)F)[nH]c2c1,replicon,-,-,-,-,0.5–1.5 µM
CCCCOc1ccc(N(C(N)=O)c2nc(-c3ccccn3)cs2)cc1C(F)(F)F,-,-,-,-,-,<1 µM
CCCCNC(=S)Nc1cccc(OCCCCCc2ccccc2)c1,reporter gene / fluorescence,-,-,Ava5-EG(delta4AB)SEAP,-,0.001–1 µM
Cc1ccc(F)c(-c2cc(-c3cccc(NC(=O)C(Cl)Cl)c3)on2)c1Cl,replicon,-,-,-,-,≤10 µM
Cc1cc(-c2nnc(N[C@@H]3CCC[C@H](O)C3)o2)nc2c(C(C)(C)C)cc(OCC(F)(F)F)cc12,-,GT 1b WT,-,Huh7,-,0.00032 µM
CC1(C)CC(=O)C2=C(C1)Nc1c(O)cccc1N(C(=O)CCC(=O)NC(C)(C)C)C2c1ccc(OCc2ccccc2)cc1Cl,luciferase / reporter gene / replicon,1b,-,-,-,6.69 µM
NS(=O)(=O)c1ccc(CCNc2ncnc3c2cnn3-c2ccccc2C(F)(F)F)cc1,replicon,-,-,HUH 9B,-,1–10 µM
C#Cc1cn([C@@H]2O[C@H](CO)[C@@H](O)C2(F)F)c2ncnc(N)c12,replicon,1a,-,HCV replicon,-,0.44 µM
COc1ccc2c(c1)c(=O)c(-c1noc(Cc3ccccc3)n1)cn2CC1CCCCC1,replicon,1b,-,-,-,>10 µM
COC(=O)CCc1ccc(S(=O)(=O)Oc2ccccc2/C=N/NC(=O)Cc2cccc(OC)c2)cc1,replicon,-,-,Huh7,-,>50 µM